# Data as given in PubChem BioAssay AID624099 (ICCB-Longwood, 2012).
# Aim: 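Knock-downs relieving repression by E2 of an HPV18 LCR luciferase reporter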 (primary screen)
# System: human C33A cervical carcinoma cells (HPV-negative) stably expressing BPV1 E2 and an HPV18 LCR luciferase reporter
# Reagents: siRNA pool against human genes, 40 nM
# Timing: 72 h
# Measured: 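Per-well luciferase luminescence, z-scored on each plate against the plate mean and SD with control wells left out, then averaged across three replicate plates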
# Scale: mean z-score and z-score: higher = stronger reporter signal, weaker E2 silencing
# Rule for the call: 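Mean z ≥ 2 together with z ≥ 2 in two or more of the three replicates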
# The whole screen tested about 21,000 reagents; shown is a random part of them. 497 of all reagents (2.4%) count as active. 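Higher z means weaker E2 silencing; only reporter increases were scored, and knock-downs that hurt cell survival may mask genuine repressor factors.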
gene knocked down,mean z-score,"z-score, replicate A","z-score, replicate B","z-score, replicate C",call
KLF5,-0.31,-0.31,-0.31,-0.31,inactive
PDGFA,-0.72,-0.8,-0.73,-0.64,inactive
PRPF4,-0.73,-0.81,-0.8,-0.58,inactive
NAA11,-0.55,-0.69,-0.43,-0.53,inactive
GLOD5,-0.18,-0.3,0.02,-0.25,inactive
TSSK3,0.16,0.2,0.18,0.1,inactive
ATRN,-0.27,-0.34,-0.03,-0.42,inactive

Ordered by “z-score, replicate A” (lowest first): 2 of the entries above
gene knocked down,mean z-score,"z-score, replicate A","z-score, replicate B","z-score, replicate C",call
PDGFA,-0.72,-0.8,-0.73,-0.64,inactive
KLF5,-0.31,-0.31,-0.31,-0.31,inactive

Further reagents:
gene knocked down,mean z-score,"z-score, replicate A","z-score, replicate B","z-score, replicate C",call
ZSCAN16,-0.73,-0.87,-0.54,-0.76,inactive
LOC401220 (retired record),-0.37,-0.57,-0.51,-0.05,inactive
TJP3P1,-0.14,0.23,-0.49,-0.15,inactive
SPATA8,0.22,-0.09,0.29,0.45,inactive
STAC,1.31,1.18,1.27,1.48,inactive
CDK5R2,-0.23,-0.36,-0.3,-0.03,inactive
GLE1,1.34,1.16,1.21,1.66,inactive
LOC389310 (retired record),-0.68,-1.21,-0.41,-0.41,inactive
LINC00614,0.91,0.61,1.13,1.01,inactive
LINC02245,0.1,0.54,-0.21,-0.02,inactive
RNF114,-1.28,-1.17,-1.29,-1.37,inactive
TTLL8,0.75,0.66,1.03,0.54,inactive
WT1,-0.38,-0.43,-0.43,-0.28,inactive
MPO,1.38,1.3,1.34,1.52,inactive
ARGLU1-DT,-0.95,-0.69,-0.98,-1.19,inactive
TRIT1,-1.05,-0.96,-0.99,-1.19,inactive
